Taken from: PubChem BioAssay AID504761 (Drosophila RNAi Screening Center, 2011)

Screen: 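Genome-wide fly cell screen for genes dengue virus requires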 (primary screen)
Cell system: D.Mel-2 cells from Drosophila
Reagents: long dsRNA against Drosophila genes
Conditions: infection with dengue virus type 2; dose and infection time not stated
Read-out: 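Cells stained for dengue envelope protein and imaged; percent of infected cells per well on duplicate plates, ranked by infection, with stained nuclei counted for cell number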
Direction: infection score: higher = more virus-infected cells; cell count: higher = more cells in the well
Call rule: 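Low infection ranks in the two replicates (chance level up to 0.065) followed by a retest with a 1.5-fold or larger significant decrease, p below 0.05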
Calls: active = confirmed: knock-down lowers infection; inactive = not picked or not confirmed
The screen tested about 22,000 reagents; this is a random part of those that have a named target and a result. Over the whole deposit, 116 (0.52%) are marked active. 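Calls depend on retest data that are not deposited; infection was ranked per plate without normalising between plates; the unit of the infection score is not given.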 The raw values are shown without normalisation. Names joined by + are all predicted targets of the reagent. Reagent sequences are not shown. Not given: the amount of reagent, the time to read-out.

Target gene	amplicon	infection score, replicate 1	infection score, replicate 2	cell count, replicate 1	cell count, replicate 2	outcome
sli	DRSC07684	9.94	15.6	6536	5775	inactive
sli	DRSC29578	2.28	3.7	570	1028	inactive
CG14762	DRSC05073	0.41	0.79	6148	5940	inactive
CG14762	DRSC06496	14	19.3	5955	5387	inactive
shv	DRSC00640	26.7	22.6	6160	6520	inactive
shv	DRSC22122	4.11	4.95	6421	6824	inactive
shv	DRSC26482	1.49	2.71	5645	5719	inactive
shv	DRSC26483	2.67	2.96	5701	6154	inactive
Patronin	DRSC06756	12.8	6.86	5800	5624	inactive
Patronin	DRSC06757	14.7	8.01	5509	5330	inactive
Patronin	DRSC06994	4.59	18.6	5560	5980	inactive
CG13954	DRSC06442	1.22	4.45	6542	6422	inactive
CG13954	DRSC27499	12.3	9.42	5760	6805	inactive
CG6472	DRSC06989	3.15	11.4	6731	5620	inactive
Spn27A	DRSC03608	7.01	1.34	6447	6420	inactive
CG18404	DRSC15323	9.2	5.21	6380	6674	inactive
Alg9	DRSC14407	7.11	5.63	6677	6464	inactive
CG13442	DRSC06402	4.43	1.33	5736	6488	inactive
CG13442	DRSC25909	2.18	4.2	6369	6311	inactive
7SLRNA:CR42652 + 7SLRNA:CR32864	DRSC22968	5.05	26.2	5904	5638	inactive
CG13685	DRSC10043	3.46	2.54	6419	6304	inactive
CG13685	DRSC30064	9.23	9.39	6217	5610	inactive
CG14190	DRSC19545	5.15	0.51	5707	5455	inactive
CG14190	DRSC27410	27.3	7.51	6071	6362	inactive
CG33331 + CG33332	DRSC22928	1.43	10.3	6299	4777	inactive
CG33331 + CG33332	DRSC29492			281	783	inactive
CG9525	DRSC03249	8.15	5.59	5853	6079	inactive
CG12170	DRSC12199	5.98	10.1	6385	6945	inactive
Usp15-31	DRSC04426	8.27	15.3	6661	5275	inactive
Usp15-31	DRSC24986	3.11	6.68	6144	6152	inactive
CG31300	DRSC14657	9.66	0.88	5715	6914	inactive
CG31300	DRSC25696	7.08	18	6722	6113	inactive
Lap1	DRSC07454	28.9	14.8	5099	6276	inactive
CG18536	DRSC06763	10.2	15	5672	5964	inactive
Sin1	DRSC05965	10.1	16.2	6369	6159	inactive
Rbcn-3A	DRSC18314	2.78	8.27	5722	6145	inactive
Rbcn-3A	DRSC28199		14.1	52	6209	inactive
ATPsynepsilonL	DRSC14548	7.07	8.29	6324	6288	inactive
CG5084	DRSC06913	24.1	3.94	5079	6903	inactive
CG5084	DRSC27650	19.8	5.59	5630	716	inactive
Ssu72	DRSC19572	2.98	1.57	6066	6286	inactive
Ssu72	DRSC27868	8.74	31.2	6136	5489	inactive
CG3328	DRSC04357	39.6	26.9	5596	5492	inactive
CG3328	DRSC25998	8.74	3.21	6156	5322	inactive
CG12483	DRSC08278	3.31	4.29	6553	6880	inactive
alphaTub84D	DRSC12623	7.13	10.3	1262	926	inactive
alphaTub84D	DRSC23498	3.49	4.34	6188	6215	inactive
CG30480	DRSC06736	15.5	9.61	5980	6753	inactive
CG30480	DRSC28831	3.43		699	431	inactive
RpL24-like	DRSC16111	3.53	6.96	5300	4815	inactive
CG32712	DRSC17820	3.32	3.27	6681	6168	inactive
Ntan1	DRSC07546	4.12	3.41	6332	6737	inactive
cGlr1	DRSC06270	8.2	9.43	6698	6131	inactive
CG2126	DRSC15418		11.1	429	4840	inactive
Not3	DRSC04908	7.05	11.9	3317	3451	inactive
Not3	DRSC27324	2.07	4.21	4590	5059	inactive
CG15239	DRSC17972	4	5.29	6724	4123	inactive
CG15239	DRSC25155	4.92	2	6603	6160	inactive
CG33282	DRSC00422	15	23.2	6553	6247	inactive
CG4483	DRSC10426	6.22	5.38	6448	6337	inactive
SC35	DRSC03425	5.45	5.59	5502	5777	inactive
SC35	DRSC25427	0.91	7.86	6034	5486	inactive
SC35	DRSC27081	3.7	6.2	6517	7290	inactive
IntS9	DRSC10493	7.5	12.4	5065	3285	inactive
IntS9	DRSC28991	16.8	6.88	4397	5362	inactive
cid	DRSC05429	2.43	3.23	5919	5603	inactive
cid	DRSC07592			394	454	inactive
CG17271	DRSC15210	6.02	18.2	1828	6879	inactive
CG17271	DRSC22982	3.73	10.8	6539	6111	inactive
CG17271	DRSC25780	4.18	1.07	6174	6908	inactive
ttm2	DRSC08268	1.69	1.95	5734	5912	inactive
CG14331	DRSC14810		7.55	374	5176	inactive
Atac3	DRSC08579	7.91	2.02	6159	6988	inactive
CG17732	DRSC10283	4.06	7.08	6572	6555	inactive

Looked up above:
cid [DRSC07592], cell count, replicate 1: 394
For “outcome”, Patronin [DRSC06756] is entered as inactive
Under “cell count, replicate 1”, CG17732 [DRSC10283] is entered as 6572
For “outcome”, Usp15-31 [DRSC04426] has inactive
Value for CG3328 [DRSC25998] in “cell count, replicate 1”: 6156
Under “cell count, replicate 2”, SC35 [DRSC27081] shows 7290
